Pooled drug test results. Numbers come from NIAID ChemDB, via PubChem.

All rows: growth or infection tests; organism: Plasmodium falciparum; endpoint: EC50

ECn is the concentration giving n% inhibition of infection, replication or growth. Neighbouring rows are from separate reports. An empty or dashed field is not shown.

structure | changes | read by | cells | strain or isolate | value
NC1=Nc2ccc(I)cc2C1(O)c1ccccc1 | - | - | - | Dd2 | 0.338 µM
Clc1cccc(CC[C@H]2C[C@H]3CC[C@H]4C[C@@H](CCc5cccc(Cl)c5)NC(=N2)N34)c1 | - | LDH | - | D6 | 6.34 µM
CC1=C2Cc3cc(ccc3O)C(=O)O[C@H](C(C)(C)O)CC[C@](C)(O)[C@H](Br)CC[C@]2(C)[C@@H](Br)CC1 | - | SYBR Green | Human O+ erythrocytes | 3D7 MR4/ATCC | 56 µM
CCO/C(=N/NC(=O)NC)C(C)(O)c1ccc(Cl)c(Cl)c1 | - | hypoxanthine uptake / radiometric | - | 3D7 | 0.85 µM
CN(C)CCNC(=O)c1sc(-c2ccccc2)nc1-c1ccccc1 | - | - | - | 3D7 | >19.3 µg/mL
C[C@H]1Cc2c([nH]c3cc(Cl)c(F)cc23)[C@@]2(N1)C(=O)Nc1ccc(Cl)cc12 | Multidrug-resistant | SYBR Green / fluorescence | - | Dd2 (CM1) | 0.000671 µM
O=C1[C@@H](NCCCNc2ccnc3cc(Cl)ccc23)[C@@H](/C=C/c2ccccc2)N1C1CCCCCC1 | Chloroquine-resistant | flow cytometry | - | W2 | 0.176 µM
CC(C)CC1(O)C(N)=Nc2ccc(Cl)cc21 | - | - | - | Dd2 | 0.27 µM
O=C(CNc1ccnc2cc(Cl)ccc12)N[C@H]1C(=O)N(C2CCCCCC2)[C@H]1/C=C/c1ccccc1 | Chloroquine-resistant | flow cytometry | - | W2 | 1.145 µM
C[C@H]1CCc2c([nH]c3ccccc23)[C@@]2(N1)C(=O)Nc1ccc(Cl)cc12 | Multidrug-resistant | SYBR Green / fluorescence | - | Dd2 (CM1) | 0.0318 µM
Cc1ccc(N2C(=O)[C@H](NC(=O)CCCNc3ccnc4cc(Cl)ccc34)[C@@H]2/C=C/c2ccccc2)cc1 | Chloroquine-resistant | flow cytometry | - | W2 | 0.0795 µM
COC(=O)C1=C(C)N(Cc2ccc(C(F)(F)F)cc2)C(=NCc2cccc(C(F)(F)F)c2)NC1c1cccc(Cl)c1 | - | SYBR Green / fluorescence | - | GB4 | 0.02 µM
CCCCN1C(=O)[C@@H](NCCCNc2ccnc3cc(Cl)ccc23)[C@H]1/C=C/c1ccccc1 | Chloroquine-resistant | flow cytometry | - | W2 | 0.3977 µM
N=C(N)c1ccc(OCCCCOc2ccc(C(=N)N)cc2Cl)c(Cl)c1 | - | hypoxanthine uptake | - | W2 | 0.089 µM
Cc1ccc(C(C)C)cc1.NC(=S)N/N=C/c1ccccc1.[Cl][Ru+] | - | LDH | - | Dd2 | 5.1 µM
O=C(/C=C/c1ccccc1)OCC1OC(OC2C=C[C@H]3[C@@H](O2)[C@@H]2O[C@]2(CO)[C@@H]3O)C(O)C(O)C1O | - | - | Erythrocytes | 3D7 | >25 µM
CCOC(=O)N/N=C(/OCC)C(C)(O)c1ccc(F)c(Br)c1 | - | hypoxanthine uptake / radiometric | - | 3D7 | 1.5 µM
Cc1c(-c2cccc(Cc3ccc(OC(F)(F)F)cc3)c2)[nH]c2ccc(Cl)cc2c1=O | - | - | - | 3D7 | 0.034 µM
CCO/C(=N/NC(=O)OC(C)(C)C)C(C)(O)c1ccc(Cl)c(Cl)c1 | - | hypoxanthine uptake / radiometric | - | 3D7 | 4.9 µM
Cc1c(-c2ccc(Cc3ccc(OC(F)(F)F)cc3)cc2)[nH]c2cc(O)ccc2c1=O | - | - | - | 3D7 | 0.819 µM
CCO/C(=N/NC(=O)OC(C)(C)C)C(C)(O)c1ccc2ccccc2c1 | - | hypoxanthine uptake / radiometric | - | 3D7 | 4.4 µM
COc1ccc2[nH]c(-c3ccc(Cc4ccc(OC(F)(F)F)cc4)cc3)c(C)c(=O)c2c1 | - | - | - | 3D7 | 0.008 µM
COC(=O)C1=C(C(=O)OC)C2N(Cc3ccccc3)c3ccccc3[C@@]23C[C@@H](C(=O)OC)N(S(=O)(=O)c2ccc(C(F)(F)F)cc2)C3=N1 | - | SYBR Green / fluorescence | - | CP250 | 1.5 µM
CC(C)CCCC1CC2CCCC3CC(C)NC(=N1)N23 | - | LDH | - | W2 | 7.22 µM
O=C1Nc2ccccc2C1(O)c1ccccc1 | - | - | - | Dd2 | >5 µM
CC1=C2Cc3cc(ccc3O)C(=O)O[C@H](C(C)(C)O)CC[C@]3(C)O[C@H]3C/C=C(\C)[C@@H]2CC1 | - | SYBR Green | Human O+ erythrocytes | 3D7 MR4/ATCC | >100 µM
N=C(N)c1ccc(OCCCCCOc2ccc(C(=N)N)cc2Cl)c(Cl)c1 | - | hypoxanthine uptake | - | D6 | 0.08 µM
c1ccc(CC[C@@H]2C[C@@H]3CC[C@@H]4C[C@H](CCc5ccccc5)NC(=N2)N43)cc1 | - | LDH | - | D6 | 6.16 µM
CCN(CC)CCCC(C)Nc1ccnc2cc(Cl)ccc12 | - | broth dilution / absorbance | - | D6 | 0.015 µM
C#CCCC1CC2CCC3CC(C)NC(=N1)N23 | - | LDH | - | W2 | 20.6 µM
N=C(N)c1cccc(OCCCCCCOc2cccc(C(=N)N)c2)c1 | - | hypoxanthine uptake | - | D6 | 0.05 µM
Clc1cccc(CC[C@H]2C[C@H]3CCC[C@H]4C[C@@H](CCc5cccc(Cl)c5)NC(=N2)N34)c1 | - | LDH | - | W2 | 1.64 µM
COc1cc2c(cc1OC)[C@H]1O[C@](CCCCN3C(=O)c4ccccc4C3=O)(C2)OC2=C1C(=O)CC(C)(C)C2 | - | SYBR Green / fluorescence | - | 7G8 GB4 | 2.5 µM
NC1=Nc2ccc(Cl)cc2C1(O)c1ccc(S(N)(=O)=O)cc1 | - | - | - | 3D7 | >5 µM
CC(C)=CCC[C@@H]1C[C@@H]2CC[C@@H]3C[C@H](CCC=C(C)C)NC(=N1)N32 | - | LDH | - | D6 | 7.29 µM
C=C1CC[C@H](Br)[C@@]2(C)CCC(Br)[C@@](C)(O)CCC(O)C(C)(C)OC(=O)c3ccc(O)c(c3)C[C@H]12 | - | SYBR Green | Human O+ erythrocytes | 3D7 MR4/ATCC | 2.5 µM
O=C1[C@@H](NCCNc2ccnc3cc(Cl)ccc23)[C@@H](/C=C/c2ccccc2)N1C1CCCCC1 | Chloroquine-resistant | flow cytometry | - | W2 | 0.1389 µM
CCOC(=O)C1=C(O)/C(=C\c2cc(C)n(C3CCN(Cc4ccccn4)CC3)c2C)N=C1C | Chloroquine/pyrimethamine-resistant | - | - | K1 | 0.38 µM
N=C(N)c1cccc(OCCCCCOc2cccc(C(=N)N)c2)c1 | - | hypoxanthine uptake | - | W2 | 0.085 µM
COc1ccc2c(c1)C(O)(c1ccccc1)C(N)=N2 | - | - | - | 3D7 | 0.024 µM
O=C(CCCCCNc1ccnc2cc(Cl)ccc12)N[C@H]1C(=O)N(C2CCCCCC2)[C@H]1/C=C/c1ccccc1 | Chloroquine-resistant | flow cytometry | - | W2 | 0.152 µM
COc1cc(C(C)=O)ccc1OC1OC(COC(=O)/C=C/c2ccc(O)c(O)c2)C(O)C(O)C1O | - | - | Erythrocytes | 3D7 | >25 µM
NC(=S)N/N=C/c1ccc2ccccc2c1 | - | LDH | - | Dd2 | >10 µg/mL
NC1=Nc2ccc(Cl)cc2C1(O)c1cccc2ccccc12 | - | - | - | Dd2 | 0.037 µM
CCCCCCCCCC1CC2CCCC3CC(C)NC(=N1)N23 | - | LDH | - | W2 | 3.76 µM
CCOC(=O)C1=C(C(=O)OCC)C2N(Cc3ccccc3C(F)(F)F)c3ccccc3[C@@]23C[C@@H](C(=O)OC)N(S(=O)(=O)c2ccc(C)cc2)C3=N1 | - | SYBR Green / fluorescence | - | 7G8 GB4 | 0.8 µM
COc1ccc2[nH]cc(C3(O)C(N)=Nc4ccc(Cl)cc43)c2c1 | - | - | - | Dd2 | >5 µM
CCN(CC)CCNC(=O)c1sc(-c2ccccc2)nc1-c1ccccc1 | - | - | - | 3D7 | >19.3 µg/mL
COC(=O)C1=C(C(=O)OC)C2N(Cc3ccccc3)c3ccccc3[C@@]23C[C@@H](C(=O)OC)N(S(=O)(=O)c2ccc(Br)cc2)C3=N1 | - | SYBR Green / fluorescence | - | CP250 | 2.3 µM
Cc1ccccc1C1(O)C(N)=Nc2ccccc21 | - | - | - | Dd2 | 0.152 µM
CCCCCC[C@]12Cc3cc(OC)c(OC)cc3[C@@H](O1)c1c(c3ccccc3n(C)c1=O)O2 | - | SYBR Green / fluorescence | - | HB3 Dd2 | 2.5 µM
NC(=S)N/N=C/c1ccccc1 | - | LDH | - | NF54 | >10 µg/mL
O=C(CCCCCNc1ccnc2cc(Cl)ccc12)N[C@H]1C(=O)N(c2ccc(F)cc2)[C@H]1/C=C/c1ccccc1 | Chloroquine-resistant | flow cytometry | - | W2 | 0.1874 µM

A second listing of 8 rows from above:

{"structure": "COC(=O)C1=C(C(=O)OC)C2N(Cc3ccccc3)c3ccccc3[C@@]23C[C@@H](C(=O)OC)N(S(=O)(=O)c2ccc(Br)cc2)C3=N1", "read by": "SYBR Green / fluorescence", "strain or isolate": "CP250", "value": "2.3 µM"}
{"structure": "N=C(N)c1cccc(OCCCCCOc2cccc(C(=N)N)c2)c1", "read by": "hypoxanthine uptake", "strain or isolate": "W2", "value": "0.085 µM"}
{"structure": "CCN(CC)CCCC(C)Nc1ccnc2cc(Cl)ccc12", "read by": "broth dilution / absorbance", "strain or isolate": "D6", "value": "0.015 µM"}
{"structure": "CN(C)CCNC(=O)c1sc(-c2ccccc2)nc1-c1ccccc1", "strain or isolate": "3D7", "value": ">19.3 µg/mL"}
{"structure": "O=C(CCCCCNc1ccnc2cc(Cl)ccc12)N[C@H]1C(=O)N(c2ccc(F)cc2)[C@H]1/C=C/c1ccccc1", "changes": "Chloroquine-resistant", "read by": "flow cytometry", "strain or isolate": "W2", "value": "0.1874 µM"}
{"structure": "O=C1[C@@H](NCCNc2ccnc3cc(Cl)ccc23)[C@@H](/C=C/c2ccccc2)N1C1CCCCC1", "changes": "Chloroquine-resistant", "read by": "flow cytometry", "strain or isolate": "W2", "value": "0.1389 µM"}
{"structure": "CCCCN1C(=O)[C@@H](NCCCNc2ccnc3cc(Cl)ccc23)[C@H]1/C=C/c1ccccc1", "changes": "Chloroquine-resistant", "read by": "flow cytometry", "strain or isolate": "W2", "value": "0.3977 µM"}
{"structure": "C#CCCC1CC2CCC3CC(C)NC(=N1)N23", "read by": "LDH", "strain or isolate": "W2", "value": "20.6 µM"}